Laboratory results taken from article PMC5618191, “The Natural Fungal Metabolite Beauvericin Exerts Anticancer Activity In Vivo: A Pre-Clinical Pilot Study” (Toxins, 2017).

Assay: H/E stained tissue sections of diverse organs of treated mice
Type: in vivo
Conditions: beauvericin-treated mice

## beauvericin
  Tissue alteration or inflammatory responses in H/E stained sections of diverse organs: no signs of tissue alteration or inflammatory responses
